Results deposited as PubChem BioAssay AID504761 (Drosophila RNAi Screening Center, 2011)
In all, the deposit lists about 22,000 reagents; below is a random part of those with a known target gene and a result. Of all reagents, 116 (0.52%) were called active. 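Calls depend on retest data that are not deposited; infection was ranked per plate without normalising between plates; the unit of the infection score is not given.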 Raw values vary from plate to plate and are shown uncorrected. Entries without a mark were called inactive. Not stated in the record: the amount of reagent, the time to read-out.

Assay: 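Genome-wide fly cell screen for genes dengue virus requires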 (primary screen)
Cell system: D.Mel-2 cells from Drosophila
Reagent: long dsRNA against Drosophila genes
Treatment: infection with dengue virus type 2; dose and infection time not stated
Detection: 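Per well on two replicate plates, imaging gave the percent of cells positive for viral envelope protein, ranked by infection, and a nuclear count of cells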
Reading the numbers: infection score: higher = more virus-infected cells; cell count: higher = more cells in the well
Active means: 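Low infection ranks in the two replicates (chance level up to 0.065) followed by a retest with a 1.5-fold or larger significant decrease, p below 0.05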
Meaning of the calls: active = confirmed: knock-down lowers infection; inactive = not picked or not confirmed

no.	predicted target	DRSC id	infection score, replicate 1	infection score, replicate 2	cell count, replicate 1	cell count, replicate 2
1	CG13594	DRSC23254	1.35	17.6	6864	6294
2	CG13594	DRSC27243	1.55	2.39	6845	6519
3	Afg3l2	DRSC10657	7.13	23	3323	3010
4	Afg3l2	DRSC29981	29.7	10.5	3358	4240
5	Mondo	DRSC02668	16.4	6.35	2394	2046
6	Mondo	DRSC22006	3.58	21	5923	6175
7	Mondo	DRSC26287	9	3.34	5825	4998
8	CG32236	DRSC08117		0.2	894	6032
9	Fibp	DRSC11031	10	15.4	6769	4737
10	Fibp	DRSC26529	0.74	2.82	6730	6519
11	ppk24	DRSC15093	7.6	5.93	6300	6793
12	CG9344	DRSC04541	8.5	8.09	6620	5837
13	Pcyt2	DRSC08531	9.39	5.35	5763	1681
14	CG43737	DRSC19609	6.73	5.8	6348	6915
15	Gr10a	DRSC18897	1.66	1.21	6217	6841
16	Gr10a	DRSC22792	5.02	5.69	5972	1125
17	Gr10a	DRSC26071	9.32	4.24	6532	6489
18	PH4alphaSG2	DRSC15037		1.82	379	603
19	BicC	DRSC02005	12.3	1.6	5997	6627
20	BicC	DRSC29676			253	357
21	NetB	DRSC20262	3.82	6.48	6438	6185
22	NetB	DRSC26437	3.8	2.82	7009	6535
23	Semp1	DRSC01874	9.6	3.44	4522	6882
24	pigs	DRSC17472	0.06	0.21	6821	6528
25	pigs	DRSC18334	4.61	5.5	6426	6311
26	pigs	DRSC18335	16.9	13.6	5602	5740
27	Mal-A3	DRSC07462	6.64	7.54	6128	6839
28	Mal-A3	DRSC28752	15.2	24.4	3482	3225
29	CG14662	DRSC12248	5.22	7.3	6824	6521
30	CG32147	DRSC09346	2.97	2.28	5661	5604
31	CG32147	DRSC24225	4.16	2.21	6443	5922
32	CG16956	DRSC02544	4.63	3.7	6524	6867
33	CG9021	DRSC03128	3.02	5.4	6456	6146
34	DCTN6-p27	DRSC02609	4.22	7.16	6262	6174
35	DCTN6-p27	DRSC22810	1.9	6.99	5201	3205
36	DCTN6-p27	DRSC29904	14.2	7.78	6370	5941
37	CycJ	DRSC08653	5.05	6.02	1863	1262
38	CycJ	DRSC29329		17.4	306	2687
39	CG14810	DRSC17693	0.92	0.53	6618	6621
40	CG14810	DRSC17961	14.7	0.22	1939	460
41	CG14810	DRSC25199	4.9	4.71	6119	6094
42	Snmp1	DRSC16168	17.1	5.6	5137	1197
43	Mks1	DRSC19697	3.37	1.56	6648	6881
44	Pex1	DRSC11358	4.31	3.24	6656	6635
45	par-1	DRSC05792	1.92	2.5	4474	4323
46	par-1	DRSC06098	2.78	1.2	6360	6324
47	par-1	DRSC06616	8.37		2854	375
48	par-1	DRSC07660	4.95	2.18	5573	5957
49	par-1	DRSC07661	0.91	0.77	6495	6378
50	mRpS9	DRSC12645	3.95	3.27	5371	4954
51	mRpS9	DRSC15456	28.9	22.4	5385	4368
52	lok	DRSC03567	5.4	2.51	6180	6783
53	lok	DRSC25866	1.2	2.87	6998	6165
54	cic	DRSC16918	3.29	1	6436	5993
55	cic	DRSC21243	2.06	2.19	5679	5623
56	cic	DRSC23217	0.8	8.12	7375	6908
57	cic	DRSC25516	3.19	8.26	5423	5509
58	cic	DRSC25800	1.63	3.69	6004	6665
59	cic	DRSC30090	9.77	14.4	6080	5061
